Measured values: paper PMC12707362, “Targeting Aurora Kinases as Essential Cell‐Cycle Regulators to Deliver Multi‐Stage Antimalarials Against Plasmodium Falciparum” (Angewandte Chemie (International Ed. in English), 2025)

System: pool of barcoded drug-resistant P. falciparum parasites (Dd2 and 3D7 backgrounds)
Format: cell-based, Plasmodium falciparum
Settings: 3xIC50, 14 days
Description: The pool consisted of 52 lines (Supplementary File S2) in both the Dd2 and 3D7 backgrounds, including wild-type, that were barcoded at the pfpare locus (PF3D7_0709700)^[18], with unique 11-bp barcode sequences. The pool (triplicate cultures of 1 mL) was exposed to 3 xIC50 of each test compound, including the positive control compound halofuginone that targets prolyl tRNA synthetase. Growth of the pool was measured every 2–3 days by flow cytometry (Beckman CytoFlex 5), staining with 1xSYBR Green I and 200 nM MitoTracker Deep Red, and parasitemia maintained within a range <5% parasitemia. At day 14, samples were harvested, lysed with 0.05% saponin and parasite pellets collected. Barcodes were amplified by PCR and quantified by sequencing using an Oxford Nanopore minION. The change in barcode proportion (log2 fold change, LFC) was measured relative to the no-drug control, with LFC>2.5 indicating cross-resistance.

SMILES: COc1cc(N2CCC(N3CCN(C)CC3)CC2)ccc1Nc1ncc(Cl)c(Nc2ccccc2S(=O)(=O)C(C)C)n1 [TAE684, NVP-TAE684]
- cross-resistance with known antimalarial resistance mechanisms: no cross‐resistance
